{"source": "PubChem BioAssay AID624416", "about": "(The Scripps Research Institute Molecular Screening Center, 2012)", "note": "Only a part is listed here, and it is no random draw. Calls of active or inactive are those of the source. Rule as the data show it: active = inhibition above about 8.5%; inactive = the rest.", "data": [{"test_system": "HIV-1 gp120 / PG9 antibody interaction", "test": "binders of HIV-1 gp120 antibody PG9, primary screen, biochemical, TR-FRET (AID 624416)", "details": "TR-FRET gp120-PG9 antibody binding; at 6.7 µM; stronger effect = higher value", "values": [{"smiles": "CC(=O)Nc1ccc([As](=O)(O)O)cc1", "inhibition": "inactive: -1.2%"}]}]}
